Anti-infective test results gathered from many reports (values: NIAID ChemDB through PubChem).

Common to all: host cell toxicity; cell line: MT-4; measure: CC50

CCn: concentration that lowers growth or viability of the cells by n%. Conditions beyond the fields shown may differ between rows.

smiles | value
Cc1nn(-c2ccccc2)c2nnn(N)c12 | 200 µM
C(CCC1CNCCNCCCNCCNC1)CCC1CNCCNCCCNCCNC1 | 210 µM
CC1(C)S[C@H]([C@H](NC(=O)Cc2ccccn2)C(=O)NCc2ccccc2)N[C@H]1C(=O)NCCNC(=O)[C@@H]1N[C@@H]([C@H](NC(=O)Cc2ccccn2)C(=O)NCc2ccccc2)SC1(C)C | >100 µM
Cc1cn([C@H]2C=C[C@@H](CO)O2)c(=O)[nH]c1=O | 106 µM
c1cc(CCNCCCN2CCCC2)ccc1CCNCCCN1CCCC1 | 37 µg/mL
CCOCn1c(Cc2cc(C)cc(C)c2)c(CC)c(=O)[nH]c1=O | 249 µM
CC(C)c1nc(CN(C)C(=O)N[C@H](C(=O)N[C@@H](Cc2ccccc2)C[C@H](O)[C@H](Cc2ccccc2)NC(=O)OCc2cncs2)C(C)C)cs1 | 441.6 µg/mL
CCC(C)Oc1nc(N)cc(S(=O)(=O)c2ccccc2)n1 | 90 µM
CC(C)(C)OC(=O)CNC(=O)[C@@H](NC(=O)Cc1ccccc1)[C@@H]1N[C@@H](C(=O)NCCNC(=O)[C@@H]2N[C@@H]([C@H](NC(=O)Cc3ccccc3)C(=O)NCC(=O)OC(C)(C)C)SC2(C)C)C(C)(C)S1 | >100 µM
C1CNCCNCCCN(CCCN2CCCNCCNCCCNCC2)CCNC1 | >250 µg/mL
CC1(C)C=Cc2cc(C(=O)CC(=O)c3ccc(O)cc3)c(O)cc2O1 | 27 µg/mL
CCOC(=O)C1c2cccn2S(=O)(=O)c2ccccc2N1C(=O)CBr | 10 µM
CCCCSc1cc(N)nc(Nc2cccc3ccccc23)n1 | 100 µM
CCCCCCCCOC(=O)P(=O)(O)OC[C@H]1O[C@@H](n2cc(C)c(=O)[nH]c2=O)C[C@@H]1N=[N+]=[N-] | 42 µM
CC1(C)S[C@H]([C@H](NC(=O)Cc2ccccc2)C(=O)NCc2ccccc2)N[C@H]1C(=O)N[C@H](Cc1ccccc1)[C@H](O)CC(=O)N[C@H](CO)Cc1ccccc1 | >100 µM
CC1(C)S[C@H]([C@H](NC(=O)Cc2ccccc2)C(=O)NCc2ccccc2)N[C@H]1C(=O)NCCNC(=O)[C@@H]1N[C@@H]([C@H](NC(=O)Cc2ccccc2)C(=O)NCc2ccccc2)SC1(C)C | >100 µM
NCCCCCCNC(=O)/C=C/c1cn([C@H]2C=C[C@@H](CO)O2)c(=O)[nH]c1=O | >100 µM
COc1cc2oc(-c3ccc(O)cc3O)cc2c(OC)c1CC=C(C)C | >50 µg/mL
CC1(C)S[C@H]([C@H](NC(=O)Cc2ccccc2)C(=O)NCc2ccccc2)N[C@H]1C(=O)NCC(O)CNC(=O)[C@@H]1N[C@@H]([C@H](NC(=O)Cc2ccccc2)C(=O)NCc2ccccc2)SC1(C)C | >100 µM
O=c1c(Oc2ccccc2)coc2cc(O)cc(O)c12 | >100 µg/mL
O=C(O)C1Nc2ccccc2S(=O)(=O)n2cccc21 | >300 µM
CCn1nnc2c(C)nn(-c3ccccc3)c21 | 145 µM
CC(C)(C)C(=O)SCCOC(=O)P(=O)(OCCSC(=O)C(C)(C)C)OCCSC(=O)C(C)(C)C | >10 µM
C1CNCCCNCCCNC1 | 85 µM
CC(C)(C)C(=O)SCCOC(=O)P(=O)(O)OCCSC(=O)C(C)(C)C | >100 µM
CC1(C)C=Cc2c(ccc(-c3coc4cc(O)cc(O)c4c3=O)c2O)O1 | 7 µg/mL
CCCCSc1nc(N)cc(Sc2ccc3ccccc3c2)n1 | 68 µM
Fc1cccc(Cl)c1C1OCc2nc3ccccc3n21 | 71 µM
c1cc(CCNCCCN2CCCCC2)ccc1CCNCCCN1CCCCC1 | 47 µg/mL
CC1(C)S[C@H]([C@H](NC(=O)Cc2ccccc2)C(=O)NCc2ccccc2)N[C@H]1C(=O)NCCNC(=O)[C@@H]1N[C@@H]([C@H](NC(=O)Cc2ccccc2)C(=O)NCc2ccccc2)SC1(C)C | >100 µM
Fc1cccc(F)c1C1OCc2nc3ccccc3n21 | 62 µM
C1CNCCNCCCNCCNC1 | 226 µg/mL
Nc1cc(Nc2cccc3ccccc23)nc(Cl)n1 | 7.6 µM
CCNC(=O)[C@@H](NC(=O)c1c(-c2ccccc2)noc1C)[C@@H]1N[C@@H](C(=O)NCCNC(=O)[C@@H]2N[C@@H]([C@H](NC(=O)c3c(-c4ccccc4)noc3C)C(=O)NCC)SC2(C)C)C(C)(C)S1 | >100 µM
O=S(=O)(O)OCC1OC2OC3C(COS(=O)(=O)O)OC(OC4C(COS(=O)(=O)O)OC(OC5C(COS(=O)(=O)O)OC(OC6C(COS(=O)(=O)O)OC(OC7C(COS(=O)(=O)O)OC(OC8C(COS(=O)(=O)O)OC(OC9C(COS(=O)(=O)O)OC(OC1C(OS(=O)(=O)O)C2OS(=O)(=O)O)C(OS(=O)(=O)O)C9OS(=O)(=O)O)C(OS(=O)(=O)O)C8OS(=O)(=O)O)C(OS(=O)(=O)O)C7OS(=O)(=O)O)C(OS(=O)(=O)O)C6OS(=O)(=O)O)C(OS(=O)(=O)O)C5OS(=O)(=O)O)C(OS(=O)(=O)O)C4OS(=O)(=O)O)C(OS(=O)(=O)O)C3OS(=O)(=O)O | >250 µg/mL
CC(C)(C)OC(=O)NCCCCCCNC(=O)/C=C/c1cn([C@H]2C=C[C@@H](CO)O2)c(=O)[nH]c1=O | 66 µM
CCC(C)Oc1cc(=O)[nH]c(Sc2ccc(OC)cc2)n1 | >300 µM
O=S1(=O)c2ccccc2N=Cc2cccn21 | 46 µM
CN(C)c1ccc(CNC(=O)[C@@H](NC(=O)Cc2ccccc2)[C@@H]2N[C@@H](C(=O)NCCNC(=O)[C@@H]3N[C@@H]([C@H](NC(=O)Cc4ccccc4)C(=O)NCc4ccc(N(C)C)cc4)SC3(C)C)C(C)(C)S2)cc1 | >100 µM
CCc1c(Sc2cc(C)cc(C)c2)n(COCCO)c(=S)[nH]c1=O | 172 µM
CC1(C)S[C@H]([C@H](NC(=O)Cc2ccccc2)C(=O)NCc2ccccc2)N[C@H]1C(=O)N[C@H](Cc1ccccc1)[C@H](O)CC(=O)Nc1nc2ccccc2[nH]1 | >100 µM
C1CNCCNCC(CCCC2CNCCNCCCNCCNC2)CNCCNC1 | 120 µM
Cc1cn([C@H]2C[C@H](N=[N+]=[N-])[C@@H](CO)O2)c(=O)[nH]c1=O | 7.8 µM
CCC(C)Oc1cc(N)nc(Sc2ccccc2C)n1 | 99 µM
C[C@H](Cn1cnc2c(N)nc(N)nc21)OCP(=O)(O)O | >300 µM
CCNc1nc2c(o1)c(C)nn2-c1ccccc1 | 29 µM
CCCN1C(=O)c2cccn2S(=O)(=O)c2ccc(Cl)cc21 | >300 µM
C1CNCCNCCCN[C@H]([C@H]2CNCCCNCCNCCCN2)CNC1 | 298 µg/mL
CCNC(=O)n1nnc2c(C)nn(-c3ccccc3)c21 | 81 µM
Cc1cn(C2CC(N=[N+]=[N-])C(COP(=O)(OC[C@H]3O[C@@H](n4cc(C)c(=O)[nH]c4=O)C[C@@H]3N=[N+]=[N-])C(=O)OCCSC(=O)C(C)(C)C)O2)c(=O)[nH]c1=O | >10 µM
C[C@@H](Cn1cnc2c(N)ncnc21)OCP(=O)(O)O | >300 µM
Nc1nc2c(ncn2[C@H]2CC[C@@H](CO)O2)c(=O)[nH]1 | 611 µM
CCc1c(Sc2cc(C)cc(C)c2)n(COCc2ccccc2)c(=O)[nH]c1=O | >20 µM
CC1(C)S[C@H]([C@H](NC(=O)Cc2ccccc2)C(=O)NCc2ccccc2)N[C@H]1C(=O)N[C@H](Cc1ccccc1)[C@H](O)CC(=O)NCCCO | >100 µM
CCC(C)Oc1cc(=O)[nH]c(S(=O)(=O)c2cccc(Cl)c2)n1 | 104 µM
CN1C(=O)c2cccn2S(=O)(=O)c2ccc(Cl)cc21 | 110 µM
C1CNCCNCCNCCN1 | 20 µM
c1cc(CN2CCCNCCNCCCNCC2)ccc1CN1CCCNCCNCCCNCC1 | >250 µg/mL
CCC(C)Oc1cc(N)nc(Sc2ccccc2OC)n1 | 71 µM
CC(C)=CCN1C(=O)c2cccn2S(=O)(=O)c2ccc(Cl)cc21 | >300 µM
CCc1c(Sc2cc(C)cc(C)c2)n(COCc2ccccc2)c(=S)[nH]c1=O | >20 µM